A mixed list of measured activities; the numbers were collected in NIAID ChemDB.

Shared fields: target-level tests; organism: HIV-1; protein: Protease

ICn: concentration for n% inhibition. An empty or dashed field is not shown. Conditions beyond the fields shown may differ between rows.

structure,setting,method,measure,value
O=C1O[C@H]2[C@@H]3OC(=O)c4cc(O)c(O)c(O)c4-c4c(cc(O)c(O)c4O)C(=O)OC[C@H]2O[C@@H](OC(=O)c2cc(O)c(O)c(O)c2)[C@@H]3OC(=O)c2cc(O)c(O)c3c2[C@@H]2C1=CC(=O)[C@](O)(O3)C2(O)O,-,absorbance,IC50,6.28 µg/mL
CON(C)C(=O)c1ccc(S(=O)(=O)N(CC(C)C)C[C@@H](O)[C@H](Cc2ccccc2)NC(=O)O[C@H]2CO[C@H]3OCC[C@H]32)cc1,-,substrate cleavage / fluorescence,Ki,0.000192 µM
CC(C)(C)NC(=O)[C@@H]1C[C@@H]2CCCC[C@@H]2CN1C[C@H](O)[C@H](Cc1ccccc1)NC(=O)c1cccc(Cl)c1Cl,-,fluorescence,IC50,0.0487 µg/mL
COc1ccc(OC(=O)NCCC(C)(C)CN(C[C@@H](O)[C@H](Cc2ccccc2)NC(=O)O[C@H]2CO[C@H]3OCC[C@H]32)S(=O)(=O)c2ccc3c(c2)OCO3)cc1,-,fluorescence,Ki,<0.001 µM
CC(C)CC(NC(=O)[C@@H](NC(=O)[C@H](Cc1c[nH]c2ccccc12)NC(=O)CCCCC(=O)Nc1ccn([C@H]2CS[C@@H](CO)O2)c(=O)n1)C(C)C)[C@@H](O)CC(=O)NC(Cc1ccccc1)c1ccccc1,-,HPLC,IC50,0.4 µM
CC(C)CN(C[C@@H](O)[C@H](Cc1ccccc1)NC(=O)O[C@H]1CO[C@H]2OCC[C@H]21)S(=O)(=O)c1ccc(-c2cnc([C@H](C)O)o2)cc1,-,substrate cleavage / fluorescence,Ki,0.0000217 µM
C=C(C)[C@@H]1CC[C@]2(C(=O)O)CC[C@]3(C)[C@H](CC[C@@H]4[C@@]5(C)CC[C@H](OC(=O)CCC(=O)OC)C(C)(C)C5CC[C@]43C)[C@@H]12,-,HPLC,IC50,40 µM
CC(C)(C)OC(=O)N[C@H](CN[C@@H](Cc1ccccc1)C(=O)N[C@@H](CCC(=O)O)C(=O)N[C@@H](Cc1ccccc1)C(N)=O)Cc1ccccc1,pH 7.0,fluorescence,IC50,1.178 µM
CC(C)C[C@@H](C(=O)N[C@@H](Cc1ccccc1)[C@H](O)CN(CC(C)C)S(=O)(=O)c1ccc(Br)cc1)N1C(=O)c2ccccc2C1=O,-,-,IC50,0.022 µM
CC1(C)CC[C@]2(C(=O)O)CC[C@]3(C)C(=CCC4[C@@]5(C)CC[C@H](OC(=O)CCCC(=O)O)C(C)(C)C5CC[C@]43C)C2C1,-,HPLC,IC50,4 µM
CC(=O)ONc1ccc(S(=O)(=O)N(Cc2ccccc2)C[C@@H](O)[C@H](Cc2ccccc2)NC(=O)[C@H](CC(C)C)N2C(=O)c3ccccc3C2=O)cc1,-,-,IC50,0.06 µM
CC(C)C[C@H](NC(=O)[C@H](Cc1ccccc1)NC(=O)C[C@H](O)[C@H](Cc1ccccc1)NC(=O)OC(C)(C)C)C(=O)N[C@@H](Cc1ccccc1)C(=O)Nc1ccn([C@H]2CS[C@@H](CO)O2)c(=O)n1,-,HPLC,IC50,30 µM
CC(C)CCNC(=O)[C@H](C(C)C)[C@@H](O)[C@H](O)C(=O)[C@H](CC(C)C)NC(=O)[C@H](Cc1cnc[nH]1)NC(=O)[C@H](Cc1ccccc1)NC(=O)OC(C)(C)C,-,-,Ki,0.36 µM
Cc1c(NS(C)(=O)=O)cccc1C(=O)N[C@@H](Cc1ccccc1)[C@@H](O)CN1C[C@H]2CCCC[C@H]2C[C@H]1C(=O)NC(C)(C)C,-,fluorescence,IC50,0.093 µg/mL
CC(=O)O[C@H]1CC[C@]2(C)[C@H]3CC=C4[C@@H]5[C@@H](C)[C@H](C)CC[C@]5(C(=O)O)CC[C@@]4(C)[C@]3(C)CC[C@H]2C1(C)C,-,HPLC,IC50,13 µM
CC(C)(C)OC(=O)N[C@H]1CCCCNC(=O)CCC(=O)NCCCC[C@@H](C(N)=O)NC(=O)[C@H](Cc2ccccc2)NC(=O)C[C@H](Cc2ccccc2)NC1=O,-,-,IC50,>10 µM
CC(C)(CCC#N)CN(C[C@@H](O)[C@H](Cc1ccccc1)NC(=O)O[C@H]1CO[C@H]2OCC[C@H]21)S(=O)(=O)c1cccc(N)c1,-,fluorescence,Ki,<0.001 µM
CC(C)(C)NC(=O)[C@@H]1C[C@@H]2CCCC[C@@H]2CN1C[C@H](O)[C@H](Cc1ccccc1)NC(=O)c1c(Cl)ccc(O)c1Cl,-,fluorescence,IC50,0.346 µg/mL
C#CCOC(=O)NCCCCC(C)(C)CN(C[C@@H](O)[C@H](Cc1ccccc1)NC(=O)O[C@H]1CO[C@H]2OCC[C@H]21)S(=O)(=O)c1ccc2c(c1)OCO2,-,fluorescence,Ki,<0.001 µM
CCCCCCCCCCCCCc1cc(O)cc(O)c1,-,HPLC,IC50,5.8 µM
COC(=O)CCCC(=O)O[C@H]1CC[C@@]2(C)C(CC[C@]3(C)C2CC=C2C4CC(C)(C)CC[C@]4(C(=O)OC)CC[C@]23C)C1(C)C,-,HPLC,IC50,>50 µM
CC(=O)ONc1ccc(S(=O)(=O)N(CC(C)C)C[C@@H](O)[C@H](Cc2ccccc2)NC(=O)c2ccc(-c3ccc(Cl)cc3)o2)cc1,-,-,IC50,0.045 µM
CC[C@H](C)[C@H](NC(=O)[C@H](C(C)C)[C@@H](O)[C@H](O)[C@H](CC1CCCCC1)NC(=O)[C@H](Cc1cnc[nH]1)NC(=O)COc1ccccc1)C(=O)NCc1ccccn1,-,-,Ki,0.002 µM
CC[C@H](C)[C@H](NC(=O)CN(O)C(=O)[C@H](Cc1ccccc1)NC(=O)OC(C)(C)C)C(=O)N[C@@H](Cc1ccccc1)C(=O)O,-,-,IC50,>10 µM
CC(=O)ONc1ccc(S(=O)(=O)N(CC(C)C)C[C@@H](O)[C@H](Cc2ccccc2)NC(=O)COc2ccc3ccccc3c2)cc1,-,-,IC50,0.069 µM
CC(C)(CCOC(=O)Oc1ccc([N+](=O)[O-])cc1)CN(C[C@@H](O)[C@H](Cc1ccccc1)NC(=O)O[C@H]1CO[C@H]2OCC[C@H]21)S(=O)(=O)c1ccc2c(c1)OCO2,-,fluorescence,Ki,<0.001 µM
CC[C@H](C)[C@H](NC(=O)[C@H](Cc1ccccc1)NC[C@H](Cc1ccccc1)NC(=O)OC(C)(C)C)C(=O)N[C@@H](Cc1ccccc1)C(=O)OC,-,-,IC50,>10 µM
COC(=O)[C@H](Cc1ccccc1)NC(=O)[C@H](CCC(=O)O)NC(=O)C[C@H](O)C(CC(C)C)NC(=O)[C@@H](NC(=O)[C@H](Cc1c[nH]c2ccccc12)NC(C)=O)C(C)C,-,HPLC,IC50,0.01 µM
Cc1c(O)cccc1C(=O)N[C@@H](CC(C)C)C(=O)N(c1ccccc1)N(CCO)C(=O)[C@@H]1CCCN1C(=O)OC(C)(C)C,-,HPLC,IC50,85 µM
CC(C)C[C@H](NC(=O)[C@H](C)NC(=O)C[C@H](O)[C@H](CC(C)C)NC(=O)[C@@H](NC(=O)[C@H](Cc1ccc(O)cc1)NC(=O)OCc1ccccc1)C(C)C)[C@@H](O)CC(=O)O,-,HPLC,IC50,0.06 µM
CSCC[C@H](NC(=O)c1cccc(O)c1C)C(=O)N(c1ccccc1)N(CCO)C(=O)[C@@H]1CCCN1C(=O)OC(C)(C)C,-,HPLC,IC50,275 µM
CC(C)(CCCCNC(=O)c1cccs1)CN(C[C@@H](O)[C@H](Cc1ccccc1)NC(=O)O[C@H]1CO[C@H]2OCC[C@H]21)S(=O)(=O)c1ccc2c(c1)OCO2,-,fluorescence,Ki,<0.001 µM
CC[C@H](C)[C@H](NC(=O)[C@H](Cc1ccccc1)NCC(O)[C@H](Cc1ccccc1)NC(=O)OCc1ccccc1)C(=O)N[C@@H](Cc1ccccc1)C(=O)OC,-,-,IC50,<10 µM
CC(C)(CCCCNC(=O)CO)CN(C[C@@H](O)[C@H](Cc1ccccc1)NC(=O)O[C@H]1CO[C@H]2OCC[C@H]21)S(=O)(=O)c1ccc2c(c1)OCO2,-,fluorescence,Ki,<0.001 µM
CC(C)C[C@H](NC(=O)[C@@H](NC(=O)CCCCCNC(=O)[C@H](Cc1ccccc1)NC(=O)[C@H](CCC(=O)O)NC(=O)[C@H](Cc1ccccc1)NC[C@H](Cc1ccccc1)NC(=O)OC(C)(C)C)[C@@H](C)O)C(=O)N[C@@H](CC(N)=O)C(=O)N[C@@H](Cc1ccccc1)C(=O)O,pH 7.0,fluorescence,IC50,0.567 µM
C=CCCOC(=O)NCCCCCC(C)(C)CN(C[C@@H](O)[C@H](Cc1ccccc1)NC(=O)O[C@H]1CO[C@H]2OCC[C@H]21)S(=O)(=O)c1ccc2c(c1)OCO2,-,fluorescence,Ki,<0.001 µM
CSCC[C@H](NC(=O)c1cccc(O)c1C)C(=O)N(c1ccccc1)N(CO)C(=O)[C@@H]1CCCN1C(=O)OC(C)(C)C,-,HPLC,IC50,430 µM
CCCOC(=O)NCCCCCC(C)(C)CN(C[C@@H](O)[C@H](Cc1ccccc1)NC(=O)O[C@H]1CO[C@H]2OCC[C@H]21)S(=O)(=O)c1ccc2c(c1)OCO2,-,fluorescence,Ki,<0.001 µM
CC(C)(C)OC(=O)N[C@H]1CCCCNC(=O)CC(=O)NCCCC[C@@H](C(N)=O)NC(=O)[C@H](Cc2ccccc2)NC(=O)CC(Cc2ccccc2)NC1=O,-,-,IC50,>10 µM
CC(C)(CCCCNC(=O)NCc1ccccc1)CN(C[C@@H](O)[C@H](Cc1ccccc1)NC(=O)O[C@H]1CO[C@H]2OCC[C@H]21)S(=O)(=O)c1ccc2c(c1)OCO2,-,fluorescence,Ki,<0.001 µM
CC(C)(C)NC(=O)[C@@H]1CN(Cc2cccnc2)CCN1C[C@H](O)[C@@H](CSc1ccccc1)NC(=O)c1cccc2ncccc12,-,fluorescence,IC50,0.0054 µg/mL
CN(C)C(=O)NCCCCCC(C)(C)CN(C[C@@H](O)[C@H](Cc1ccccc1)NC(=O)O[C@H]1CO[C@H]2OCC[C@H]21)S(=O)(=O)c1ccc2c(c1)OCO2,-,fluorescence,Ki,<0.001 µM
CC(C)C[C@H](NC(=O)[C@H](Cc1ccccc1)NC(=O)C[C@H](O)[C@H](Cc1ccccc1)NC(=O)OC(C)(C)C)C(=O)N[C@@H](Cc1ccccc1)C(=O)Nc1ccn([C@H]2CS[C@@H](CO[Si](c3ccccc3)(c3ccccc3)C(C)(C)C)O2)c(=O)n1,-,HPLC,IC50,30 µM
CC(C)(CCCCNS(=O)(=O)c1ccc(F)cc1)CN(C[C@@H](O)[C@H](Cc1ccccc1)NC(=O)O[C@H]1CO[C@H]2OCC[C@H]21)S(=O)(=O)c1ccc2c(c1)OCO2,-,fluorescence,Ki,<0.001 µM
CCCCCC/C=C/CCCCCCCCCc1cccc(O)c1,-,HPLC,IC50,>100 µM
CCCNC(=O)NCCCC(C)(C)CN(C[C@@H](O)[C@H](Cc1ccccc1)NC(=O)O[C@H]1CO[C@H]2OCC[C@H]21)S(=O)(=O)c1ccc2c(c1)OCO2,-,fluorescence,Ki,<0.001 µM
Cc1c(O)cccc1C(=O)N[C@@H](CC(C)C)C(=O)N(c1ccccc1)N(CO)C(=O)[C@@H]1CCCN1C(=O)OC(C)(C)C,-,HPLC,IC50,77 µM
CC(C)NC(=S)NCCCC(C)(C)CN(C[C@@H](O)[C@H](Cc1ccccc1)NC(=O)O[C@H]1CO[C@H]2OCC[C@H]21)S(=O)(=O)c1ccc2c(c1)OCO2,-,fluorescence,Ki,<0.001 µM
CC(=O)O[C@H]1CC[C@]2(C)[C@H]3CC=C4[C@@H]5CC(C)(C)CC[C@]5(C(=O)O)CC[C@@]4(C)[C@]3(C)CC[C@H]2C1(C)C,-,HPLC,IC50,9 µM
COC(=O)NCCCCC(C)(C)CN(C[C@@H](O)[C@H](Cc1ccccc1)NC(=O)OC1COCOC1)S(=O)(=O)c1ccc(N)cc1,-,fluorescence,Ki,<0.001 µM
COC(=O)[C@]12CCC(C)(C)C[C@H]1C1=CC[C@@H]3[C@@]4(C)CC[C@H](O)C(C)(C)[C@@H]4CC[C@@]3(C)[C@]1(C)CC2,-,HPLC,IC50,20 µM
CC(C)N(C(=O)NCCC(C)(C)CN(C[C@@H](O)[C@H](Cc1ccccc1)NC(=O)O[C@H]1CO[C@H]2OCC[C@H]21)S(=O)(=O)c1ccc2c(c1)OCO2)C(C)C,-,fluorescence,Ki,<0.001 µM
CC(C)(C)OC(=O)N[C@@H](Cc1ccccc1)[C@@H](O)CC(=O)N[C@@H](CCC(=O)O)C(=O)N[C@@H](Cc1ccccc1)C(=O)O,-,HPLC,IC50,0.2 µM
CC(C)(CCCNC(=O)C(C)(C)C)CN(C[C@@H](O)[C@H](Cc1ccccc1)NC(=O)O[C@H]1CO[C@H]2OCC[C@H]21)S(=O)(=O)c1ccc2c(c1)OCO2,-,fluorescence,Ki,<0.001 µM
C[C@H]1[C@H](C)CC[C@]2(C(=O)O)CC[C@]3(C)C(=CC[C@@H]4[C@@]5(C)CC[C@H](O)C(C)(C)[C@@H]5CC[C@]43C)[C@H]12,-,HPLC,IC50,8 µM
COc1ccc(S(=O)(=O)NCCCC(C)(C)CN(C[C@@H](O)[C@H](Cc2ccccc2)NC(=O)O[C@H]2CO[C@H]3OCC[C@H]32)S(=O)(=O)c2ccc3c(c2)OCO3)cc1,-,fluorescence,Ki,<0.001 µM
CC(=O)c1ncc(-c2ccc(S(=O)(=O)N(CC(C)C)C[C@@H](O)[C@H](Cc3ccccc3)NC(=O)O[C@H]3CO[C@H]4OCC[C@H]43)cc2)o1,-,substrate cleavage / fluorescence,Ki,0.000119 µM

Repeating the final 3 entries:

structure,setting,method,measure,value
C[C@H]1[C@H](C)CC[C@]2(C(=O)O)CC[C@]3(C)C(=CC[C@@H]4[C@@]5(C)CC[C@H](O)C(C)(C)[C@@H]5CC[C@]43C)[C@H]12,-,HPLC,IC50,8 µM
COc1ccc(S(=O)(=O)NCCCC(C)(C)CN(C[C@@H](O)[C@H](Cc2ccccc2)NC(=O)O[C@H]2CO[C@H]3OCC[C@H]32)S(=O)(=O)c2ccc3c(c2)OCO3)cc1,-,fluorescence,Ki,<0.001 µM
CC(=O)c1ncc(-c2ccc(S(=O)(=O)N(CC(C)C)C[C@@H](O)[C@H](Cc3ccccc3)NC(=O)O[C@H]3CO[C@H]4OCC[C@H]43)cc2)o1,-,substrate cleavage / fluorescence,Ki,0.000119 µM